Assay: Analytical ultracentrifugation (sedimentation equilibrium)
Assay type: physicochemical
Description: Analytical Ultracentrifugation:
Sedimentation equilibrium experiments were performed on a Beckman Optima XL-A analytical ultracentrifuge at 4° C. Six-channel cells (12 mm optical path length) were used with an An-60 Ti rotor operated at 13,500, 16,000, 17,000, 20,000, 21,000, 24,000, 25,000, 27,500, 30,000 and 35,000 rpm. The cell radii were scanned using 0.001 cm steps with 10 averages/scan. Data were analyzed using Beckman XLA data analysis software (version 3.01 for Windows) and Beckman-Origin software (version 3.78 for Windows). […] The partial specific volumes were held constant for all models considered.
Single data files were normalized to 270 nm absorbance values using Beer's Law. The data obtained with solutions containing the DP107-like peptides were then analyzed using a single ideal species model to determine a weight-averaged molecular weight (Mw). Diagnostic plots of Mw/Mw0 vs. rpm/rpm0 and Mw vs. radial concentration were used to test for sample homogeneity as described, e.g., by McRorie & Voelker, 1993, Self-Associating Systems in the Analytical Ultracentrifuge, Beckman Instruments, Inc., Palo Alto; and Yphantis et al., 1978, in Physical Aspects of Protein Interactions: Proceedings of the Symposium on Protein Interactions, American Chemical Society Meeting, Catsimpoolas, Ed., pp. 275-303, Elsevier, Miami Beach, Fla. […] To convert the resulting association constant from absorbance units to concentration units, it was assumed that the absorbance of the n-mer is n times that of the monomer.
The data obtained with DP107-like/DP178-like peptide mixtures were first analyzed with a single ideal species model. […] The mixtures were analyzed with a two-ideal species model, choosing one species to have a molecular weight of either 28,269 Da (corresponding to three DP107-like plus three DP178-like peptides) or […] (corresponding to four DP107-like plus four DP178-like peptides).

AVSKVLHLEGEVNKIKSALLSTNKAVVSLSNGVSVLTSKVLDLKNYIDKQ [Peptide T1772, RSV DP107-like peptide, residues 153-202 of the RSV F-protein]
association constant Ka, monomer/trimer equilibrium, single data set (100 μM, 24,000 rpm, 4° C.): 2.45×10^9 M^−2
association constant Ka, monomer/trimer equilibrium, global fit (Group I: 15, 50 and 100 μM): 5.03 × 10^8 M^−2
association constant Ka, monomer/trimer equilibrium, global fit (Group II: 25, 75 and 150 μM): 5.37 × 10^8 M^−2

Reference: US6623741B1, “Methods and compositions for inhibition of membrane fusion-associated events including RSV transmission” (Trimeris, Inc., priority 2000, dated 2003)
